Anti-infective test results gathered from many reports (values: NIAID ChemDB through PubChem).

Common to all: tests in culture

An empty or dashed field is not shown. Rows are shuffled and stem from different studies. ECn: concentration that inhibits the pathogen or its effect by n%. A number after MIC or MFC names an inhibition level or a share of isolates. Inhibition is in % at the dose shown (toxicity tests: loss of growth or viability).

compound | strain or isolate | read by | organism | cell line | tested at | measure | result
CCOC(=O)c1cnc(NCCCCNc2ccnc3cc(Cl)ccc23)nc1C | ATCC 24065 | - | Cryptococcus gattii | - | - | MIC99 | 8 µg/mL
O=C(Nc1cc(C(F)(F)F)cc(C(F)(F)F)c1)NN(C(=O)Nc1cc(C(F)(F)F)cc(C(F)(F)F)c1)c1nc2ccccc2s1 | KL21 | - | Klebsiella pneumoniae | - | - | MIC | >300 µM
COc1cc(-c2ccc(N=Nc3ccc4c(S(=O)(=O)O)cc(S(=O)(=O)O)c(N)c4c3O)c(OC)c2)ccc1N=Nc1ccc2c(S(=O)(=O)O)cc(S(=O)(=O)O)c(N)c2c1O | - | cytopathic effect | Herpes simplex virus | Human conjunctiva cells | 10 µg/mL | inhibition | 30%
C=CCc1ccc(OC)c(OC)c1 | 2778 | turbidity | Candida tropicalis | - | - | MIC90 | 340 µg/mL
Nc1nc2c(ncn2COCCO)c(=O)[nH]1 | Ohtomo | plaque count | Varicella zoster virus | HELF | 1 µg/mL | inhibition | 100%
CC(C)(O)c1cn(-c2ccccc2)nn1 | ATCC 22019 | broth dilution | Candida parapsilosis | - | 2048 µg/mL | inhibition | 0%
O=[N+]([O-])c1cc([N+](=O)[O-])c2ccc(S(=O)(=O)O)cc2c1O | TYPE 3 | cytopathic effect | Adenovirus | Human embryonic lung cells | 10 µg/mL | inhibition | 10%
CCC(CC)[C@H](NC(C)=O)[C@@H]1[C@H](O)[C@@H](C(=O)O)C[C@H]1N=C(N)N | H1N1 A/TEXAS/36/91 | - | Influenza A virus | MDCK | - | EC50 | 0.09 µM
CCOC(=O)c1c(C)nc(NCCCCNc2ccnc3cc(Cl)ccc23)nc1-c1ccc(F)cc1 | 196L/03 | - | Cryptococcus gattii | - | - | MIC99 | 8 µg/mL
O=C(O)c1ccc(S(=O)(=O)[O-])cc1C(=O)O | - | cytopathic effect | Rhinovirus | Human embryonic lung cells | 10 µg/mL | inhibition | 0%
CCOC(=O)/C=C/[C@H](C[C@@H]1CCNC1=O)NC(=O)[C@@H](CC(=O)[C@@H](NC(=O)c1cc(C)on1)C(C)C)Cc1ccc(F)cc1 | Isolate 31 | cytopathic effect / visual reading | Rhinovirus | OHIO HELA-I | - | EC50 | 0.02 µg/mL
CC(C)(O)c1cn(-c2ccc([N+](=O)[O-])cc2)nn1 | URM 4124 | broth dilution | Candida albicans | - | 2048 µg/mL | inhibition | 0%
O=c1[nH]c(=O)n([C@H]2C[C@H](O)[C@@H](CO)O2)cc1/C=C/Br | Asahikawa | plaque count | Varicella zoster virus | HELF | 0.001 µg/mL | inhibition | 0%
Nc1cc(S(=O)(=O)[O-])cc2cc(S(=O)(=O)[O-])ccc12 | TYPE 3 | cytopathic effect | Adenovirus | Human amnion AV3 cells | 50 µg/mL | inhibition | 0%
O=[N+]([O-])c1ccc(C=Nc2ccccc2O)cc1 | L 27/01 | - | Cryptococcus gattii | - | - | MIC99 | 64 µg/mL
Nc1ccc2cc([N+](=O)[O-])cc(S(=O)(=O)[O-])c2c1 | - | cytopathic effect | Herpes simplex virus | Human amnion AV3 cells | 5 µg/mL | inhibition | 0%
Cn1cc(C(=O)NCc2ccc(Cl)cc2)c(=O)c2cc(CN3CCOCC3)ccc21 | DY varicella isolate | plaque count | Varicella zoster virus | HFF | 4.1 µM | inhibition | 90%
O=C(Nc1cc(C(F)(F)F)cc(C(F)(F)F)c1)NN(Cc1cccc(O)c1)C(=O)Nc1cc(C(F)(F)F)cc(C(F)(F)F)c1 | ES142 | - | Escherichia coli | - | - | MIC | 150 µM
CCC(CC)O[C@@H]1C=C(C(=O)O)C[C@H](N)[C@H]1NC(C)=O | H1N1 isolate C31D | plaque count | Influenza A virus | MDCK | - | EC50 | 0.08 µg/mL
CCOC(=O)c1c(C)nc(NCCCCNc2ccnc3cc(Cl)ccc23)nc1-c1ccccc1 | 135L/03 | - | Cryptococcus gattii | - | - | MIC99 | 8 µg/mL
CC(C)(O)c1cn(-c2ccc3ccccc3c2)nn1 | URM 4804 | broth dilution | Candida parapsilosis | - | 2048 µg/mL | inhibition | 0%
Oc1ccccc1N=Cc1cccc(O)c1O | 547/OTTI-97-PI-10 | - | Cryptococcus gattii | - | - | MIC99 | 5.7 µg/mL
CCOC(=O)c1ccc(OCCC2CCN(c3ccc(C)nn3)CC2)cc1 | FO 1-3772 (ICAM-1 receptor group 52) | neutral red | Rhinovirus | KB | - | EC50 | 0.054 µM
O=S(=O)([O-])c1ccc(O)cc1 | TYPE 3 | cytopathic effect | Adenovirus | Human embryonic lung cells | 10 µg/mL | inhibition | 0%
O=c1[nH]c(=O)n([C@H]2C[C@H](O)[C@@H](CO)O2)cc1I | Ohtomo | plaque count | Varicella zoster virus | HELF | 10 µg/mL | inhibition | 100%
Nc1ccc2c(O)cc(S(=O)(=O)[O-])cc2c1S(=O)(=O)[O-] | - | cytopathic effect | Herpes simplex virus | Human conjunctiva cells | 5 µg/mL | inhibition | 0%
Nc1nc(=O)n([C@@H]2O[C@H](CO)[C@@H](O)[C@@H]2F)cc1I | HIRAI | plaque count | Varicella zoster virus | HELF | 0.01 µg/mL | inhibition | 80%
O=C(NNC(=O)Nc1cc(C(F)(F)F)cc(C(F)(F)F)c1)Nc1cc(C(F)(F)F)cc(C(F)(F)F)c1 | KL21 | - | Klebsiella pneumoniae | - | - | MIC | >300 µM
O=S(=O)([O-])c1ccc2c(NS(=O)(=O)c3ccccc3)cc(S(=O)(=O)[O-])cc2c1 | - | cytopathic effect | Herpes simplex virus | Human amnion AV3 cells | 5 µg/mL | inhibition | 0%
Cc1ccc(-n2cc(C(C)(C)O)nn2)cc1C | URM 934 | broth dilution | Candida krusei | - | 2048 µg/mL | inhibition | 0%
C=Cc1cn([C@@H]2O[C@H](CO)[C@@H](O)[C@@H]2O)c(=O)[nH]c1=O | OKA | plaque count | Varicella zoster virus | HELF | 0.01 µg/mL | inhibition | 0%
O=C(Nc1ccc2cc(S(=O)(=O)[O-])cc(S(=O)(=O)[O-])c2c1)c1ccccc1 | TYPE 3 | cytopathic effect | Adenovirus | Human embryonic lung cells | 5 µg/mL | inhibition | 0%
O=C(Nc1ccncc1)Nc1cc(C(F)(F)F)cc(C(F)(F)F)c1 | ES142 | - | Escherichia coli | - | - | MIC | >300 µM